Results of unrelated studies side by side (data: NIAID ChemDB).

All rows: growth or infection tests; organism: HIV-2

Conditions beyond the fields shown may differ between rows.

SMILES | strain or isolate | endpoint | read by | changes | cells | result
Cc1cn([C@H]2C=C[C@@H](CO)O2)c(=O)[nH]c1=O | ROD | EC50 | MTT |  | CEM | 3.02 µM
Cc1cn([C@H]2C[C@H](N=[N+]=[N-])[C@@H](CN3C(=S)c4ccccc4C3=S)O2)c(=O)[nH]c1=O | ROD | EC50 | syncytia |  | CEM + CEM TK- | >8 µM
O=c1[nH]n(-c2nc3ccccc3c(=O)n2-c2ccncc2)c(=O)c2ccccc12 | ROD | EC50 | visual reading |  | MT-4 | 100 µM
Cc1cn([C@H]2C[C@H](N=[N+]=[N-])[C@@H](CO)O2)c(=O)[nH]c1=O | ROD | EC50 | syncytia |  | CEM + CEM TK- | ≥100 µM
Cc1cn([C@H]2C[C@H](N=[N+]=[N-])[C@@H](COC(=O)CCC(=O)OCC3OC4OC5C(COS(=O)(=O)O)OC(OC6C(COS(=O)(=O)O)OC(OC7C(COS(=O)(=O)O)OC(OC8C(COS(=O)(=O)O)OC(OC9C(COS(=O)(=O)O)OC(OC3C(OS(=O)(=O)O)C4OS(=O)(=O)O)C(OS(=O)(=O)O)C9OS(=O)(=O)O)C(OS(=O)(=O)O)C8OS(=O)(=O)O)C(OS(=O)(=O)O)C7OS(=O)(=O)O)C(OS(=O)(=O)O)C6OS(=O)(=O)O)C(OS(=O)(=O)O)C5OS(=O)(=O)O)O2)c(=O)[nH]c1=O | ROD | EC50 | cytopathic effect / MTT |  | MT-4 | 3.71 µg/mL
CCN1c2cc(C)c(C)cc2N(C)S(=O)(=O)c2cccnc21 | ROD | EC50 | cytopathic effect |  | C8166 | >150 µM
O=S(=O)(O)c1cc(NS(=O)(=O)c2ccc(-c3ccc(S(=O)(=O)Nc4cc(S(=O)(=O)O)c5cccc(S(=O)(=O)O)c5c4)cc3)cc2)cc2c(S(=O)(=O)O)cccc12 | ROD | EC50 | cytopathic effect / MTT |  | MT-4 | 61 µM
C[C@H](Cn1cnc2c(N)nc(N)nc21)OCP(=O)(O)O | ROD | EC50 | cytopathic effect / trypan blue |  | MT-4 | 0.18 µM
C1CNCCNCCCN[C@@H]([C@H]2CNCCCNCCNCCCN2)CNC1 | ROD | EC50 | cytopathic effect / MTT |  | MT-4 | 0.62 µg/mL
C#C[C@]1(CO)O[C@@H](n2cnc3c(N)nc(F)nc32)CC1O | ROD9 | EC50 | β-galactosidase / absorbance | K65R K70R Q151M M184V | MAGIC-5A | 0.007 µM
COC(=O)[C@H](C)OP(=O)(OC[C@@H]1C=C[C@H](n2cc(C)c(=O)[nH]c2=O)O1)Oc1ccccc1 |  | EC50 |  |  | CEM | 50 µM
COc1ccc(CN[C@@H](C(=O)N[C@H](C(=O)NCc2nc3ccccc3[nH]2)C(C)C)[C@H](O)[C@H](Cc2ccccc2)NC(=O)[C@@H](NC(=O)[C@@](C)(O)c2ccccc2)C(C)(C)C)cc1 | EHO | EC50 | p24 |  | MT-4 | 0.47 µM
COP(=O)(C[C@H](NP(=O)(O)OC[C@@H]1C=C[C@H](n2cc(C)c(=O)[nH]c2=O)O1)C(=O)O)OC | ROD | EC50 | MTT |  | MT-4 | 1.18 µM
Cc1cn([C@@H]2O[C@H](C)C3(OS(=O)(=O)C=C3N)[C@H]2O[Si](C)(C)C(C)(C)C)c(=O)[nH]c1=O | ROD | EC50 | syncytia |  | CEM | >20 µg/mL
Nc1ncnc2c1ncn2[C@H]1CC[C@@H](CO)O1 | ROD | EC50 |  |  | C8166 | 22 µM
CN=C1N(C)C(=O)OC12[C@@H](CO[Si](C)(C)C(C)(C)C)O[C@@H](n1cc(C)c(=O)n(C)c1=O)[C@@H]2O[Si](C)(C)C(C)(C)C | ROD | EC50 | syncytia |  | CEM | >35 µM
Cc1cn([C@H]2C[C@H](N=[N+]=[N-])[C@@H](CN3C(=O)c4c(F)c(F)c(F)c(F)c4C3=O)O2)c(=O)[nH]c1=O | ROD | EC50 | syncytia |  | CEM + CEM TK- | >200 µM
CCCCCCCCCCCCCCCC(=O)Nc1cc(S(=O)(=O)O)cc2cc(S(=O)(=O)O)cc(O)c12 | ROD | EC50 | cytopathic effect / MTT |  | MT-4 | 30 µM
Cc1cn([C@H]2C=C[C@@H](COP(=O)(O)O)O2)c(=O)[nH]c1=O | ROD | EC50 | MTT |  | CEM/TK- | 170 µM
Nc1nc(NCCc2ccccc2)c2ncn(CCOCP(=O)(O)O)c2n1 | ROD | EC50 | cytopathic effect / MTT |  | CEM | 12.5 µg/mL
Cc1cn([C@@H]2O[C@@H](CO[Si](C)(C)C(C)(C)C)C3(OS(=O)(=O)C=C3N)[C@@H]2O[Si](C)(C)C(C)(C)C)c(=O)[nH]c1=O | ROD | EC50 | cytopathic effect / trypan blue |  | MT-4 | >100 µg/mL
CCc1nc([N+](=O)[O-])c(N2CCN(C(=O)CNCCCCCCn3c(=O)c(C)cn([C@H]4C[C@H](N=[N+]=[N-])[C@@H](CO)O4)c3=O)CC2)n1Cc1ccccc1 | ROD | EC50 |  |  | MT-4 | >56 µg/mL
C1CNCCNCC(C2CNCCNCCCNCCNC2)CNCCNC1 | ROD | EC50 | cytopathic effect / MTT |  | MT-4 | >200 µg/mL
Cc1ccc(-n2c(-n3[nH]c(=O)c4ccccc4c3=O)nc3ccccc3c2=O)cc1 | ROD | EC50 | visual reading |  | MT-4 | 100 µM
Nc1ncnc2c1ncn2CC(OCP(=O)(O)O)Sc1ccccc1 |  | EC50 | cytopathic effect |  | CEM | 33.3 µg/mL
O=C(O)C(=O)CC(=O)c1cc(OCc2ccccc2)cc(OCc2ccccc2)c1 | D194 | EC50 | RT activity |  | PBMC | 8.6 µM
CCn1c(-n2[nH]c(=O)c3ccccc3c2=O)nc2ccccc2c1=O | ROD | EC50 | visual reading |  | MT-4 | 100 µM
Cc1cn([C@H]2C[C@H](N=[N+]=[N-])[C@@H](CSCCC(=O)O)O2)c(=O)[nH]c1=O | ROD | EC50 |  |  | MT-4 | 0.29 µg/mL
Cc1cn([C@H]2C=C[C@@H](COC(=O)CNC(=O)C(=O)/C=C(\O)c3cccn3Cc3ccc(F)cc3)O2)c(=O)[nH]c1=O | D194 | EC50 | RT activity |  | PBMC | 2.9 µM
CCCCCCCCCCCCOC1OC(COS(=O)(=O)O)C(OC2OC(COS(=O)(=O)O)C(OC3OC(COS(=O)(=O)O)C(OC4OC(COS(=O)(=O)O)C(OC5OC(COS(=O)(=O)O)C(OC6OC(COS(=O)(=O)O)C(OS(=O)(=O)O)C(OS(=O)(=O)O)C6O)C(OS(=O)(=O)O)C5OS(=O)(=O)O)C(O)C4OS(=O)(=O)O)C(OS(=O)(=O)O)C3O)C(OS(=O)(=O)O)C2O)C(O)C1OS(=O)(=O)O | ROD | EC50 | cytopathic effect / MTT |  | MT-4 | 0.9 µg/mL
Cc1cn([C@H]2C[C@H](N=[N+]=[N-])[C@@H](CN3C(=O)c4cccc([N+](=O)[O-])c4C3=O)O2)c(=O)[nH]c1=O | ROD | EC50 | syncytia |  | CEM | 4.7 µM
Nc1ncnc2c1ncn2CCOCP(=O)(O)O | CBL-20 | EC50 | MTT |  | C8166 | 26 µM
COc1ccccc1-n1c(-n2[nH]c(=O)c3ccccc3c2=O)nc2ccccc2c1=O | ROD | EC50 | visual reading |  | MT-4 | 100 µM
C=CCNc1ncnc2c1ncn2C[C@@H](C)OCP(=O)(O)O | ROD | EC50 | cytopathic effect / MTT |  | CEM | 12 µg/mL
Fc1cccc(F)c1[C@H]1SCc2nc3ccccc3n21 | ROD | EC50 | cytopathic effect / MTT |  | MT-4 | >25 µg/mL
COC(=O)[C@H](C)NP(=O)(OC[C@@H]1C=C[C@H](n2cnc3c(N)ncnc32)O1)Oc1ccccc1 | ROD | EC50 |  |  | MOLT-4/C8 + MOLT-4 | 0.04 µM
Cc1cn([C@@H]2O[C@H](CO[Si](C)(C)C(C)(C)C)C3(OS(=O)(=O)C=C3N)[C@H]2O[Si](C)(C)C(C)(C)C)c(=O)n(C)c1=O | ROD | EC50 | syncytia |  | CEM | >200 µM
COC(=O)c1cc(C(O)(c2ccc(O)c(C(=O)OC)c2)c2ccc(O)c(C(=O)OC)c2)ccc1O |  | EC50 | cytopathic effect |  | MT-4 | >200 µM
Cc1cn([C@H]2C=C[C@@H](COC(=O)CNC(=O)C(=O)/C=C(\O)c3cc(OCc4ccccc4)cc(OCc4ccccc4)c3)O2)c(=O)[nH]c1=O | D194 | EC50 | RT activity |  | PBMC | 4.2 µM
C1CNCCNCCCN(CCCN2CCCNCCNCCCNCC2)CCNC1 | ROD | EC50 | cytopathic effect / MTT |  | MT-4 | 0.75 µM
O=C(O)c1cc(C(O)(c2ccc(O)c(C(=O)O)c2)c2ccc(O)c(C(=O)O)c2)ccc1O |  | EC50 | cytopathic effect |  | MT-4 | 34 µM
CC(=O)O[C@@H]1[C@H](n2cc(C)c(=O)[nH]c2=O)O[C@@H](COC(=O)c2ccccc2)C12OS(=O)(=O)C=C2N | ROD | EC50 | syncytia |  | CEM | >100 µg/mL
Nc1nc(NC2CCCC2)c2ncn(CCOCP(=O)(O)O)c2n1 | ROD | EC50 | cytopathic effect / MTT |  | MT-4 | >0.8 µg/mL
C1CNCCNCCCN[C@H]([C@@H]2CNCCCNCCNCCCN2)CNC1 | ROD | EC90 | cytopathic effect / MTT |  | MT-4 | 0.87 µM
CN(C)CCNc1nc(N)nc2c1ncn2CCOCP(=O)(O)O | ROD | EC50 | cytopathic effect / MTT |  | MT-4 | 2.39 µg/mL
Cc1cn([C@@H]2O[C@H](CCC(C)C)C3(OS(=O)(=O)C=C3N)[C@H]2OC(=O)c2ccccc2)c(=O)[nH]c1=O | ROD | EC50 | cytopathic effect / trypan blue |  | MT-4 | >4 µg/mL
CCN1c2ncccc2N(C)C(=S)c2sc3cccnc3c21 | ROD | EC50 | cytopathic effect |  | C8166 | >38 µM
Cc1cn([C@H]2C[C@H](N=[N+]=[N-])[C@@H](COC(=O)CCC(=O)OC[C@H]3O[C@@H]4O[C@H]5[C@H](O)[C@@H](O)[C@@H](O[C@H]6[C@H](O)[C@@H](O)[C@@H](O[C@H]7[C@H](O)[C@@H](O)[C@@H](O[C@H]8[C@H](O)[C@@H](O)[C@@H](O[C@H]9[C@H](O)[C@@H](O)[C@@H](O[C@H]%10[C@H](O)[C@@H](O)[C@@H](O[C@H]3[C@H](O)[C@H]4O)O[C@@H]%10CO)O[C@@H]9CO)O[C@@H]8CO)O[C@@H]7CO)O[C@@H]6CO)O[C@@H]5CO)O2)c(=O)[nH]c1=O | ROD | EC50 | cytopathic effect / MTT |  | MT-4 | 0.127 µg/mL
CCNc1nc(N(C)C)nc2c1[nH]c[n+]2C[C@@H](C)OCP(=O)(O)O | ROD | EC50 | cytopathic effect / MTT |  | MT-4 | 4.65 ± 2.59 µg/mL

Repeating the first 5 entries:

SMILES	strain or isolate	endpoint	read by	changes	cells	result
Cc1cn([C@H]2C=C[C@@H](CO)O2)c(=O)[nH]c1=O	ROD	EC50	MTT		CEM	3.02 µM
Cc1cn([C@H]2C[C@H](N=[N+]=[N-])[C@@H](CN3C(=S)c4ccccc4C3=S)O2)c(=O)[nH]c1=O	ROD	EC50	syncytia		CEM + CEM TK-	>8 µM
O=c1[nH]n(-c2nc3ccccc3c(=O)n2-c2ccncc2)c(=O)c2ccccc12	ROD	EC50	visual reading		MT-4	100 µM
Cc1cn([C@H]2C[C@H](N=[N+]=[N-])[C@@H](CO)O2)c(=O)[nH]c1=O	ROD	EC50	syncytia		CEM + CEM TK-	≥100 µM
Cc1cn([C@H]2C[C@H](N=[N+]=[N-])[C@@H](COC(=O)CCC(=O)OCC3OC4OC5C(COS(=O)(=O)O)OC(OC6C(COS(=O)(=O)O)OC(OC7C(COS(=O)(=O)O)OC(OC8C(COS(=O)(=O)O)OC(OC9C(COS(=O)(=O)O)OC(OC3C(OS(=O)(=O)O)C4OS(=O)(=O)O)C(OS(=O)(=O)O)C9OS(=O)(=O)O)C(OS(=O)(=O)O)C8OS(=O)(=O)O)C(OS(=O)(=O)O)C7OS(=O)(=O)O)C(OS(=O)(=O)O)C6OS(=O)(=O)O)C(OS(=O)(=O)O)C5OS(=O)(=O)O)O2)c(=O)[nH]c1=O	ROD	EC50	cytopathic effect / MTT		MT-4	3.71 µg/mL

An empty or dashed field is not shown. ECn: concentration that inhibits the pathogen or its effect by n%.